# Paper PMC8498006 (Advances in Redox Research, 2021)
# Target: SARS-CoV-2 M^pro (MBP-tagged main protease) (Severe acute respiratory syndrome coronavirus 2, UniProt P0DTD1)
# Format: biochemical
# Settings: 0.5 µM enzyme, preincubation 37°C 30 min, 10 µM Dabcyl-[…]-Edans 1 h
substance,measurement,value
myricitrin,IC50,21.7 µM
